Experimental data reported in patent publication US20170189529A1 (CONTRAFECT, published 2017).

B1: TRL053 (antibody, V domains shown)
VH: QVQLVQSGAEVRKPGSSVKVSCKVSGGIIRKYAINWVRQAPGQGLEWMGGIIAIFNTANYAQKFQGRVTITADESTSTVYMELSSLRSEDTALYYCARGMNYYSDYFDYWGQGSLVTVSP
VL: EIVLTQSPGTLSLSPGERATLSCRASQSVRSNNLAWYQHKPGQAPRLLIFGASSRATGIPDRFSGSGSGTDFTLTISRLEPEDFAVYYCQQYGSSPALTFGGGTKVEIKR
B2: TRL841 (antibody, V domains shown)
VH: QVQLVESGGGVVQPGRSLRLSCAASGFTFSSYGIYWVRQAPGKGLEWVAFISYDEINKFYADSVKGRFTISRDNSKNTVFLQMNSLRDEDTAVYYCAKPLRGSYRYFDLWGRGTVVTVSS
VL: DIVMTQPPATLSVSPGERATLSCGASQGLGSNLAWYQQKPGQAPRLLIYAASTRATGITARFSGSGSGTEFTLTINSLQSEDFALYYCQQYTYWPLTFGGGTKVEIKR
B3: TRL842 (antibody, V domains shown)
VH: QVQLLESGGDVVQPGTSLRLSCAASGFSLWTSGMHWVRQAPGKGLEWVAVMSYDETKKYYADSVRGRFSISRDNSRNTLYLQMNSLRVEDTAVYFCAKPRLDYLDYFHAADSWGQGTLVSVSS
VL: DIVLTQPPSVSVAPGQTATITCGGNYIGSKSVNWYQQRPGHAPVLVVYDDSDRPSGIPDRFSGSNSRSTATTATLTISRVEAGDEADYYCQVWETSEDLWVFGGGTKLTVLG
B4: TRL846 (antibody, V domains shown)
VH: QVQLVESGGGLVQPGGSLRLSCTVSGFTFNSYAMNWVRQAPGKGLEWVSGIRGSGENTYYAETVKGRFTISRDNSKNTLYLEMNSLRAEDTAVYYCARKWGRMTVFGVATDQLYYFDYWGQGTLVTVSS
VL: DITLTQSPATLSVSPGERATLSCRASQSVSSNLAWYQQKPGQAPRLLIYGASNRATDIPARFSGSGSGTEFTLTISSLQSEDFAVYYCQQFNDWPFLTFGGGTKVEIKR
B5: TRL848 (antibody, V domains shown)
VH: B3 VH
VL: B3 VL
B6: TRL849 (antibody, V domains shown)
VH: QVQLVESGPGLVKPSQTLSLTCTVSGGSISNGGYHWSWIRQHPGKGLEWIGNIYYRGSTFYDPSLKSRVTISVDTSKSQFSLKLTSVTAADTAVYYCARMPLANYDLLTGLYIGAFDLWGQGTMVTVSS
VL: DIVLTQSPATLSVSPGERATLSCRASQSVNRNLAWFQQIPGQAPRLLIFDASTRAADIPARFSGGGSGAEFTLTVSSLQPEDFAVYYCQQYDKWPPGFGQGTKVEIKR

Columns and labels:
[1] = target: hemagglutinin of influenza A virus A/VNH5N1-PR8/CDC-RG (H5), on virus (influenza A virus H5 A/VNH5N1-PR8/CDC-RG); assay: cell-based or functional assay
[2] = target: H1 California 07/09 HA trimer (influenza A virus H1 California 07/09)
[3] = target: recombinant HA of influenza A H3 A/Sydney/97 (influenza A virus H3 A/Sydney/97); assay: recombinant HA ELISA (AttoPhos fluorescence, mean of triplicates)
[4] = target: recombinant HA of influenza A H1 A/California/09 (influenza A virus H1 A/California/09); assay: as above

| Binder | IC50 (ug/ml), MDCK monolayer microneutralization assay [1] [µg/mL] | Kd [2] [nM] | koff [2] [s⁻¹] | kon [2] [M⁻¹ s⁻¹] | fold reactivity over background [3] [fold over background] | fold reactivity over background [4] [fold over background] |
| --- | --- | --- | --- | --- | --- | --- |
| B1 | 10.7 | 0.2 | 2.8e-05 | 170000 | – | – |
| B2 | – | – | – | – | 1 | 1.1 |
| B3 | – | – | – | – | 1.1 | 1 |
| B4 | – | – | – | – | 1.1 | 1.5 |
| B5 | – | – | – | – | 1.1 | 1.1 |
| B6 | – | – | – | – | 1.1 | 1 |
